Anti-infective test results gathered from many reports (values: NIAID ChemDB through PubChem).

Common to all: tests on isolated targets; agent: HIV-1; protein: Protease; measure: IC50

Rows are shuffled and stem from different studies.

SMILES,method,conditions,result
CC[C@H](C)[C@H](NC(=O)[C@@H](NC(=O)CCCCCCCCCCCCCCC(=O)N[C@@H](CCSC)C(=O)N[C@@H](Cc1ccccc1)C(=O)O)C(C)O)C(=O)N[C@@H](Cc1ccccc1)C(N)=O,HPLC,,1.67 µM
CC(C)[C@H](NC(=O)Cc1nc2ccccc2[nH]1)C(=O)N[C@@H](Cc1ccccc1)[C@H](O)CNC[C@@H](O)[C@H](Cc1ccccc1)NC(=O)OC(C)(C)C,HPLC,pH 5.5,<10 µM
CC(C)(C)NC(=O)[C@H]1N(C(=O)[C@@H](O)[C@H](Cc2ccccc2)NC(=O)[C@H](CC(N)=O)NC(=O)COc2cccc3c2CCCC3)CSC1(C)C,,,<0.05 µM
CC(C)C[C@H](NC(=O)[C@@H](NC(=O)CCCCCCCCCCCCCCC(=O)N[C@@H](CC(N)=O)C(=O)N[C@@H](Cc1ccccc1)C(=O)O)C(C)O)C(=O)N[C@@H](Cc1cc(I)c(Oc2cc(I)c(O)c(I)c2)c(I)c1)C(N)=O,,,0.4 µM
CCC[C@H](NC(=O)COc1cccc2ccccc12)C(=O)N[C@@H](Cc1ccccc1)[C@H](O)C(=O)N1CSC[C@H]1C(=O)NC(C)(C)C,,,<0.05 µM
CC(O)[C@H](NC(=O)CCCCCCCCCCCCCCC(=O)N[C@@H](CC(N)=O)C(=O)N[C@@H](Cc1ccccc1)C(=O)O)C(=O)N[C@H](C(=O)N[C@@H](Cc1ccccc1)C(N)=O)C(C)(C)C,,,12.8 µM
CC(O)[C@H](NC(=O)CCCCCCCCCCCCCCC(=O)N[C@@H](CC(N)=O)C(=O)N[C@@H](CC1CCCCC1)C(=O)O)C(=O)N[C@@H](CC1CCCCC1)C(=O)N[C@@H](Cc1ccccc1)C(N)=O,HPLC,,0.63 µM
CN(C(=O)NC(C)(C)C)[C@@H](Cc1ccccc1)[C@H](O)CNC[C@@H](O)[C@H](Cc1ccccc1)NC(=O)OC(C)(C)C,HPLC,pH 5.5,10 µM
CC(C)C[C@H](NC(=O)[C@@H](NC(=O)CCCCCCCCCCCCCCC(=O)N[C@@H](CCS(C)(=O)=O)C(=O)N[C@@H](Cc1ccccc1)C(=O)O)C(C)O)C(=O)N[C@@H](Cc1ccccc1)C(N)=O,,,5.3 µM
CSCC[C@H](NC(=O)CCCCCCCCCCCCCCC(=O)N[C@H](C(=O)N[C@@H](CC1CCCCC1)C(=O)N[C@@H](Cc1ccccc1)C(N)=O)C(C)O)C(=O)N[C@@H](Cc1ccccc1)C(=O)O,HPLC,,1.34 µM
CC(C)(C)OC(=O)N[C@@H](Cc1ccccc1)C(=O)N[C@@H](CC(N)=O)C(=O)N[C@@H](Cc1ccccc1)[C@@H](O)C(=O)NCC1CCCCC1,,,<1000 µM
COC(=O)N[C@@H](C(=O)N[C@@H](Cc1ccccc1)[C@H](O)CNC[C@@H](O)[C@H](Cc1ccccc1)NC(=O)OC(C)(C)C)C(C)(C)C,HPLC,pH 5.5,~10 µM
CC(C)Oc1cccc(OCC(=O)N[C@@H](CS(C)(=O)=O)C(=O)N[C@@H](Cc2ccccc2)[C@H](O)C(=O)N2CSC(C)(C)[C@H]2C(=O)NC(C)(C)C)c1,,,<0.05 µM
CSCC[C@H](NC(=O)CCCCCCCCCCCCCCC(=O)N[C@H](C(=O)N[C@@H](CC(C)C)C(=O)N[C@@H](Cc1ccc(-c2ccccc2)cc1)C(N)=O)C(C)O)C(=O)N[C@@H](Cc1ccccc1)C(=O)O,HPLC,,0.46 µM
CC(C)(C)NC(=O)C1N(C(=O)[C@@H](O)[C@H](Cc2ccccc2)NC(=O)[C@H](CS(C)(=O)=O)NC(=O)COc2cccc3ccccc23)CSC1(C)C,,,<0.05 µM
CC(C)(C)OC(=O)N[C@@H](Cc1ccccc1)[C@H](O)CN(C[C@@H](O)[C@H](Cc1ccccc1)NC(=O)OC(C)(C)CO)C(=O)OCC[Si](C)(C)C,HPLC,pH 5.5,<10 µM
CC(C)(C)NC(=O)[C@@H]1CCCN1C(=O)[C@@H](O)[C@H](CC1CCCCC1)NC(=O)[C@H](CC(N)=O)NC(=O)OCC1c2ccccc2-c2ccccc21,,,~0.05 µM
CC(C)C[C@H](NC(=O)[C@H](CC(C)C)NC(=O)[C@@H](NC(=O)CCCCCCCCCCCCCCC(=O)N[C@@H](CC(N)=O)C(=O)N[C@@H](Cc1ccccc1)C(=O)O)C(C)O)C(=O)O,,,>5.5 µM
CSCC[C@H](NC(=O)CCCCCCCCCCCCCCC(=O)N[C@@H](CS(C)(=O)=O)C(=O)N[C@@H](Cc1ccccc1)C(=O)O)C(=O)N[C@@H](CC(C)C)C(=O)N[C@@H](Cc1ccccc1)C(N)=O,HPLC,,0.47 µM
CC(C)(C)NC(=O)[C@H]1N(C(=O)[C@@H](O)[C@H](Cc2ccccc2)NC(=O)[C@H](CC(N)=O)NC(=O)COc2cccc3ccccc23)CSC1(C)C,,,<0.05 µM
CC(C)C[C@H](NC(=O)[C@@H](NC(=O)CCCCCCCCCCCCCCC(=O)N[C@@H](Cc1ccccc1)C(=O)N[C@@H](Cc1ccccc1)C(=O)O)C(C)O)C(=O)N[C@@H](Cc1ccccc1)C(N)=O,,,0.48 µM

For reference, 2 entries again:

SMILES | method | conditions | result
CC(C)C[C@H](NC(=O)[C@@H](NC(=O)CCCCCCCCCCCCCCC(=O)N[C@@H](CC(N)=O)C(=O)N[C@@H](Cc1ccccc1)C(=O)O)C(C)O)C(=O)N[C@@H](Cc1cc(I)c(Oc2cc(I)c(O)c(I)c2)c(I)c1)C(N)=O |  |  | 0.4 µM
CC(C)C[C@H](NC(=O)[C@@H](NC(=O)CCCCCCCCCCCCCCC(=O)N[C@@H](CCS(C)(=O)=O)C(=O)N[C@@H](Cc1ccccc1)C(=O)O)C(C)O)C(=O)N[C@@H](Cc1ccccc1)C(N)=O |  |  | 5.3 µM

Blank or dashed fields: not listed here. ICn is the concentration giving n% inhibition.